Values from PubChem BioAssay AID624099 (ICCB-Longwood, 2012)
Assay: 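Human genes that papillomavirus E2 requires to repress the HPV18 LCR promoter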 (primary screen). Cells: human C33A cervical carcinoma cells (HPV-negative) stably expressing BPV1 E2 and an HPV18 LCR luciferase reporter. Reagents: siRNA pool against human genes, 40 nM. Timing: 72 h. Measurement: 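Per-well luciferase luminescence, z-scored on each plate against the plate mean and SD with control wells left out, then averaged across three replicate plates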. Reading the numbers: mean z-score and z-score: higher = stronger reporter signal, weaker E2 silencing. Active means: 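Mean z ≥ 2 together with z ≥ 2 in two or more of the three replicates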.
This is a random part of about 21,000 deposited reagents. In the full data, 497 (2.4%) are marked active. 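Higher z means weaker E2 silencing; only reporter increases were scored, and knock-downs that hurt cell survival may mask genuine repressor factors.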 A number with no mark means an inactive call.

Gene | mean z-score | z-score, replicate A | z-score, replicate B | z-score, replicate C
GSDMD (gasdermin D) | -0.86 | -0.99 | -0.83 | -0.77
RAD51D (RAD51 paralog D) | -0.81 | -0.93 | -0.69 | -0.81
FDXR (ferredoxin reductase) | -1.12 | -1.38 | -1.22 | -0.76
H3-3B (H3.3 histone B) | 0.37 | 0.92 | 0.02 | 0.18
NRTN (neurturin) | -0.39 | -0.38 | -0.51 | -0.29
B3GNT6 | -0.13 | -0.17 | -0.31 | 0.11
PKD2 (polycystin 2, transient receptor potential cation channel) | -0.03 | -0.07 | 0.08 | -0.11
ABCA3 (ATP binding cassette subfamily A member 3) | 1.54 | 1.56 | 1.51 | 1.55
STARD3NL (STARD3 N-terminal like) | -0.24 | -0.42 | -0.2 | -0.1
TSR3 (TSR3 ribosome maturation factor) | 0.08 | 0.28 | 0.05 | -0.08
KIF25-AS1 (KIF25 antisense RNA 1) | 0.72 | 0.78 | 0.56 | 0.82
NOL6 (nucleolar protein 6) | -2.32 | -2.53 | -2.18 | -2.24
FADS2 (fatty acid desaturase 2) | -0.45 | -0.5 | -0.09 | -0.75
TP53RK (TP53 regulating kinase) | 0.13 | 0.18 | 0 | 0.22
LEO1 (LEO1 component of Paf1/RNA polymerase II complex) | 0.28 | 0.18 | 0.38 | 0.3
TAS2R42 (taste 2 receptor member 42) | 0.19 | 0.18 | 0.3 | 0.08
PLCG1 (phospholipase C gamma 1) | 0.09 | -0.03 | 0.17 | 0.11
FGFBP1 (fibroblast growth factor binding protein 1) | 0.69 | 1.42 | 0.18 | 0.46
RHOQ (ras homolog family member Q) | 1.11 | 0.84 | 1.29 | 1.2
LOC339875 (retired record) | -0.03 | -0.28 | 0.08 | 0.1
BEX3 (brain expressed X-linked 3) | 0.47 | 0.49 | 0.76 | 0.16
KLF1 (KLF transcription factor 1) | -1.25 | -1.18 | -1.2 | -1.38
RPL23A (ribosomal protein L23a) | -2.31 | -2.24 | -2.47 | -2.23
C2orf81 (chromosome 2 open reading frame 81) | 0.26 | 0.69 | -0.33 | 0.43
ARGLU1 (arginine and glutamate rich 1) | 0.04 | 0.27 | -0.36 | 0.21
LOC399933 (retired record) | -0.72 | -0.54 | -1.24 | -0.38
AGBL3 (AGBL carboxypeptidase 3) | 1.49 | 1.34 | 1.27 | 1.87
GOLGA6A (golgin A6 family member A) | 0.06 | 0.16 | 0.05 | -0.02
MED19 (mediator complex subunit 19) | -2.39 | -2.44 | -2.33 | –

Targets listed so far whose target name starts with A or a:
Gene | mean z-score | z-score, replicate A | z-score, replicate B | z-score, replicate C
ABCA3 (ATP binding cassette subfamily A member 3) | 1.54 | 1.56 | 1.51 | 1.55
ARGLU1 (arginine and glutamate rich 1) | 0.04 | 0.27 | -0.36 | 0.21
AGBL3 (AGBL carboxypeptidase 3) | 1.49 | 1.34 | 1.27 | 1.87

Additional entries follow:
Gene | mean z-score | z-score, replicate A | z-score, replicate B | z-score, replicate C
NUDT11 (nudix hydrolase 11) | -2.28 | -1.17 | -1.98 | -3.69
FANCF (FA complementation group F) | 1.12 | 1.11 | 1.31 | 0.92
CDC123 (cell division cycle 123) | -0.71 | -0.73 | -0.85 | -0.55
AMHR2 (anti-Mullerian hormone receptor type 2) | 0.1 | 0.03 | -0.03 | 0.3
E2F4 (E2F transcription factor 4) | 0.94 | 0.8 | 0.86 | 1.17
CTNNBL1 (catenin beta like 1) | 0.31 | 0.35 | 0.45 | 0.13
LOC388210 (retired record) | -0.73 | -0.75 | -0.62 | -0.83
PRMT2IP (PRMT2 interacting protein) | 1.33 | 1.82 | 1.23 | 0.94
SNRPD3 (small nuclear ribonucleoprotein D3 polypeptide) | -0.79 | -0.79 | -0.71 | -0.86
HACD3 (3-hydroxyacyl-CoA dehydratase 3) | -0.6 | -0.25 | -0.98 | -0.56
RBIS (ribosomal biogenesis factor) | -0.04 | -0.45 | 0.17 | 0.16
NDUFS1 (NADH:ubiquinone oxidoreductase core subunit S1) | 1.32 | 1.15 | 1.59 | 1.23
RPUSD3 (RNA pseudouridine synthase D3) | 0.35 | 0.55 | 0.08 | 0.41
MFSD6L (major facilitator superfamily domain containing 6 like) | 0.17 | -0.08 | 0.31 | 0.29
TAFA2 (TAFA chemokine like family member 2) | -0.28 | -0.19 | -0.19 | -0.45
TNFRSF6B (TNF receptor superfamily member 6b) | -0.34 | -0.62 | -0.25 | -0.16
ERCC6 (ERCC excision repair 6, chromatin remodeling factor) | 1.38 | 1.43 | 1.44 | 1.27
NRP1 (neuropilin 1) | 1.14 | 0.93 | 1.4 | 1.1
EDNRA (endothelin receptor type A) | 0.31 | 0.24 | 0.5 | 0.21
TK1 (thymidine kinase 1) | 0.04 | 0.12 | -0.09 | 0.09
SLC2A4 | 0.46 | 0.27 | 0.26 | 0.86
LINC00905 (long independently transcribed non-coding RNA 905) | -0.16 | 0.42 | -0.18 | -0.72
ROBO3 (roundabout guidance receptor 3) | 0.77 | 0.04 | 0.98 | 1.29
RPL18AP16 (ribosomal protein L18a pseudogene 16) | 0.83 | 0.6 | 0.48 | 1.4
AIFM3 (AIF family member 3) | -0.17 | 0.55 | -0.51 | -0.55
ANKRD30A (ankyrin repeat domain 30A) | -0.78 | -1.14 | -0.2 | -1
CASD1 (CAS1 domain sialic acid O acetyltransferase 1) | 0.26 | 0.77 | 0.23 | -0.23
ADPRS (ADP-ribosylserine hydrolase) | -0.29 | -0.02 | -0.64 | -0.2
